Measured values from several laboratories, pooled; numbers as filed in NIAID ChemDB.

Common to all: target-level tests; agent: HIV-1; target: Integrase

ICn: concentration for n% inhibition. Blank or dashed fields: not listed here. Fold resistance has wild type as its base. Inhibition is in % at the dose shown (toxicity tests: loss of growth or viability). Rows are shuffled and stem from different studies.

SMILES	strain or isolate	mutations	read by	read-out	dose	value
CC(C)Cc1ccc(C(C)C(=O)O)cc1			AlphaScreen	inhibition	10 µM	22.03%
CC1(C)CCC[C@]2(C)[C@@H]1CC[C@@]13C[C@@H](CC[C@H]12)[C@@](O)(CO)C3			ELISA / strand transfer	inhibition	25 µg/mL	13.4%
Cc1cn(C2CC(O)C(COP(=O)(O)OC3CC(n4cnc5c(N)ncnc54)OC3COP(=O)(O)O)O2)c(=O)[nH]c1=O			strand transfer	IC50		7 µM
O=C(O)c1cccnc1Nc1cccc(C(F)(F)F)c1			AlphaScreen	inhibition	10 µM	17.16%
O=c1oc2cc(O)ccc2c2ccc(O)cc12			ELISA / strand transfer	inhibition	25 µg/mL	9.9%
CN/N=C(/c1nc2ccc([N+](=O)[O-])cc2[nH]c1=O)C(O)c1ccc(C(O)/C(=N/NC)c2nc3ccc([N+](=O)[O-])cc3[nH]c2=O)cc1	RF		3′ processing	inhibition	100 µg/mL	35.5%
O=C(O)C(C(=O)O)c1c[nH]c2ccc([N+](=O)[O-])cc12		Y143R	strand transfer / fluorescence	fold resistance		0.9
CCCc1nc2c(C)cc(-c3nc4ccccc4n3C)cc2n1Cc1ccc(-c2ccccc2C(=O)O)cc1			AlphaScreen	inhibition	10 µM	3.03%
NC(CCSSCCC(N)P(=O)(O)O)P(=O)(O)O	RF		3′ processing	inhibition	100 µg/mL	49.9%
O=c1oc2c(O)c(O)cc3c(=O)oc4c(O)c(O)cc1c4c23			ELISA / strand transfer	inhibition	25 µg/mL	11.3%
Cc1cn(C2CC(O)C(COP(=O)(O)OC3CC(n4cc(C)c(=O)[nH]c4=O)OC3COP(=O)(O)O)O2)c(=O)[nH]c1=O			3′ processing	IC50		73 µM
Cc1ccc(S(=O)(=O)n2cc(C(=O)/C=C3\OC(C)(C)OC3=O)c3cc(Br)ccc32)cc1		Y143R	strand transfer / fluorescence	fold resistance		0.8
NS(=O)(=O)c1ccc(Nc2c3ccccc3nc3c(C(=O)NC(CO)(CO)CO)cccc23)cc1	RF		3′ processing	inhibition	100 µg/mL	52.9%
Cc1cn(C2CC(OP(=O)(O)OCC3OC(n4ccc(N)nc4=O)CC3O)C(COP(=O)(O)OC3CC(n4cnc5c(=O)[nH]c(N)nc54)OC3COP(=O)(O)O)O2)c(=O)[nH]c1=O			strand transfer	IC50		9 µM
CCn1cc(C(=O)O)c(=O)c2ccc(C)nc21			AlphaScreen	inhibition	10 µM	22.34%
Cc1cn(C2CC(OP(=O)(O)OCC3OC(n4cnc5c(N)ncnc54)CC3O)C(COP(=O)(O)O)O2)c(=O)[nH]c1=O			3′ processing	IC50		85 µM
O=C(O)C(=O)/C=C(\O)c1cn(Cc2cc(F)ccc2F)c2ccc(F)cc12		G140S	strand transfer / fluorescence	fold resistance		6
C[C@]1(Cn2ccnn2)[C@H](C(=O)O)N2C(=O)C[C@H]2S1(=O)=O			AlphaScreen	inhibition	10 µM	0%
C/C=C1\C(O[C@@H]2O[C@H](CO)[C@@H](O)[C@H](O)[C@H]2O)OC=C(C(=O)OC)[C@H]1CC(=O)OCCc1ccc(O)c(O)c1			ELISA / strand transfer	inhibition	25 µg/mL	4.7%
NC(N)=NS(=O)(=O)c1ccc(Nc2c3ccccc3nc3c(C(=O)NC(CO)(CO)CO)cccc23)cc1	RF		3′ processing	inhibition	100 µg/mL	42.2%
CC(C(=O)O)c1cccc(C(=O)c2ccccc2)c1			AlphaScreen	inhibition	10 µM	11.06%
Nc1ncnc2c1ncn2C1CC(O)C(COP(=O)(O)OC2CC(n3cnc4c(N)ncnc43)OC2COP(=O)(O)O)O1			3′ processing	IC50		>100 µM

2 of the rows above, restated:

{"SMILES": "C[C@]1(Cn2ccnn2)[C@H](C(=O)O)N2C(=O)C[C@H]2S1(=O)=O", "read by": "AlphaScreen", "read-out": "inhibition", "dose": "10 µM", "value": "0%"}
{"SMILES": "O=c1oc2c(O)c(O)cc3c(=O)oc4c(O)c(O)cc1c4c23", "read by": "ELISA / strand transfer", "read-out": "inhibition", "dose": "25 µg/mL", "value": "11.3%"}